A mixed list of measured activities; the numbers were collected in NIAID ChemDB.

Common to all: whole-cell or culture tests; agent: HIV-1; cells: MT-4; endpoint: fold resistance

Lines come from different laboratories, so protocols vary. Fold resistance: result on the changed form divided by that on wild type. Blank or dashed fields: not listed here.

structure | strain or isolate | mutations | read by | value
CCOc1ccc(F)c(CCNC(=S)Nc2ncc(C(F)(F)F)s2)c1Cl | IIIB | RT-L100I | cytopathic effect / XTT | >28.6
CCOCn1c(Cc2ccccc2)c(C(C)C)c(=O)[nH]c1=O | NNRTI-resistant (RT Y181C) N119 | RT-Y181C | cytopathic effect / MTT | 2200
Cc1ccc(Oc2cn(C)c(=O)c(Nc3ccc(F)cc3)n2)c(C)c1 | - | RT-K103N | cytopathic effect / MTT | >7.95
C=CCNC(=O)CSc1cnc(Nc2ccc(C#N)cc2)nc1Oc1c(C)cc(C#N)cc1C | - | Y188L | MTT | 13.6
CCCc1c(OC2CCC2)c2cc(Cl)ccc2[nH]c1=O | Nevirapine-resistant (RT Y181C) | RT-Y181C | - | >16.7
Cc1cc(S(N)(=O)=O)ccc1NC(=O)COc1ccc(Cl)cc1C(=O)c1cc(C#N)cc(C#N)c1 | Nevirapine-resistant (RT Y181C) | RT-Y181C | cytopathic effect / propidium iodide | ~1
CCCc1c(OCC2CCC2)c2cc(F)ccc2[nH]c1=O | Nevirapine-resistant (RT Y181C) | RT-Y181C | - | 3.34
Cc1cc(C#N)cc(C)c1Oc1nc(Nc2ccc(C#N)cc2)c(=O)n(C)c1C | - | RT-L100I | cytopathic effect / MTT | 1
CCc1c(Cc2cc(Cl)cc(Cl)c2)n(COC2Cc3ccccc3C2)c(=O)[nH]c1=O | NNRTI-resistant (RT Y181C) N119 | RT-Y181C | cytopathic effect / MTT | 16.15
Cc1cc(C#N)cc(C)c1Oc1nc(Nc2ccc(C#N)cc2)ncc1SCC(=O)Nc1ccc(S(C)(=O)=O)cc1 | - | L100I | MTT | 14.9
COc1cc2c(cc1Cc1cccc(Cl)c1F)c(=O)c(C(=O)O)cn2[C@H](CO)C(C)C | NL4-3 | H171T | luminescence | 1
Cc1cc(C)cc(C(=O)c2cc(Cl)ccc2OCC(=O)Nc2ccc(S(N)(=O)=O)cc2C)c1 | Nevirapine-resistant (RT Y181C) | RT-Y181C | cytopathic effect / propidium iodide | ~1
Cc1ccc(C2CC2)c(-c2cc(F)c3c(c2C)CCCO3)c1[C@H](OC1CC1)C(=O)O | NL4-3 | NRTI/NNRTI resistant K103N/Y181C | luminescence | 1
Cc1cn([C@H]2C=C[C@@H](CO)O2)c(=O)[nH]c1=O | XM-Q151M | RT-A62V V75I F77C F116Y Q151M | p24 | 73
CC(C)c1c(OCC2CCC2)c2cnccc2[nH]c1=O | Nevirapine-resistant (RT Y181C) | RT-Y181C | - | 32
CCc1cc(=O)c2ccc3c(c2o1)[C@@H](OC(=O)C12CCC(C)(C(=O)O1)C2(C)C)[C@@H](OC(=O)C12CCC(C)(C(=O)O1)C2(C)C)C(C)(C)O3 | NL4-3 | RT-E138K | p24 | >714
CCOCn1c(Cc2cc(Cl)cc(Cl)c2)c(CC)c(=O)[nH]c1=O | NNRTI-resistant (RT Y181C) N119 | RT-Y181C | cytopathic effect / MTT | >250
CCOc1c(Cl)cc(F)c(CCNC(=S)Nc2ccc(Br)cn2)c1Cl | IIIB | RT-Y181C | cytopathic effect / XTT | 12.3
Nc1nc(=O)n([C@H]2C=C[C@@H](CO)O2)cc1F | XM-Q151M | RT-A62V V75I F77C F116Y Q151M | p24 | 23
Cc1cc(C#N)cc(C)c1Oc1nc(Nc2ccc(C#N)cc2)ncc1SCC(=O)NC1CC1 | - | F227L V106A | MTT | 44.2
O=C(COc1ccc(Cl)cc1C(=O)c1nccs1)Nc1ccc2[nH]ncc2c1 | Nevirapine-resistant (RT Y181C) | RT-Y181C | cytopathic effect / propidium iodide | ~10
C=CCOCn1c(Cc2cc(Cl)cc(Cl)c2)c(CC)c(=O)[nH]c1=O | NNRTI-resistant (RT K103N Y181C) A17 | RT-K103N Y181C | cytopathic effect / MTT | 100
Cc1cc(C#N)cc(C)c1Oc1nc(Nc2ccc(C#N)cc2)ncc1SCC(=O)NCc1ccc(O)cc1 | - | L100I | MTT | 5.1
Cc1cc(NS(=O)(=O)CC2CCCCC2)c(C)c(C(OC(C)(C)C)C(=O)O)c1-c1ccc2c(c1)CCCO2 | NL4-3 | PI-resistant ARP-11803 (L33F/E34T/K43T/G48V/I54S/L63P/A71V/V82A) | luminescence | 1
O=C1Nc2ccc(Cl)cc2[C@@](C#CC2CC2)(C(F)(F)F)O1 | - | K103N | - | 27
CCc1c(OC#CC2CC2)c2cc(F)ccc2[nH]c1=O | - | RT-K103N | - | 13.3
C#CCNC(=O)CSc1cnc(Nc2ccc(C#N)cc2)nc1Oc1c(C)cc(C#N)cc1C | - | RES056 | MTT | 113.6
CCc1c(Cc2cc(Cl)cc(Cl)c2)n(COC/C=C/c2ccccc2)c(=O)[nH]c1=O | NNRTI-resistant (RT K103N Y181C) A17 | RT-K103N Y181C | cytopathic effect / MTT | >250
Cc1cc(C#N)cc(C(=O)c2cc(Cl)ccc2OCC(=O)Nc2ccc(S(N)(=O)=O)nc2C)c1 | Nevirapine-resistant (RT Y181C) | RT-Y181C | cytopathic effect / propidium iodide | ~1
CC(C)[C@H](NC(=O)OCc1ccccn1)C(=O)N[C@@H](Cc1ccccc1)[C@@H](O)C[C@H](Cc1ccccc1)NC(=O)OCc1cccnc1 | NL4-3 | PR-M46I V82T I84V | p24 | 3.75
Cc1cc(C#N)cc(C)c1Oc1nc(Nc2ccc(C#N)cc2)ncc1SCC(=O)NC1CCN(C(=O)OC(C)(C)C)CC1 | - | F227L V106A | MTT | 43.5
Cc1cc2cn[nH]c2cc1NC(=O)COc1ccc(Cl)cc1C(=O)c1cccc(C#N)c1 | Nevirapine-resistant (RT Y181C) | RT-Y181C | cytopathic effect / propidium iodide | ~1
CC(C)c1c(OC#CC2CC2)c2cc(Cl)ccc2[nH]c1=O | - | RT-103N Y181C | - | 40
Cc1cc(C#N)cc(C)c1Oc1nc(Nc2ccc(C#N)cc2)ncc1SCC(=O)NCCN1CCN(C(=O)OC(C)(C)C)CC1 | - | Y181C | MTT | 4.2
Cc1cc(C)c(Oc2nc(Nc3ccc(C#N)cc3)c(=O)n(C)c2C)c(C)c1 | - | RT-Y188L | cytopathic effect / MTT | 40
CCCc1c(OC#CC2CC2)c2cc(Cl)ccc2[nH]c1=O | Nevirapine-resistant (RT Y181C) | RT-Y181C | - | 1.43
Cc1cc(C#N)cc(C)c1Oc1nc(Nc2ccc(C#N)cc2)ncc1SCC(=O)NCC1CCCO1 | - | Y181C | MTT | 6.5

2 of the rows above, restated:

structure | strain or isolate | mutations | read by | value
C=CCNC(=O)CSc1cnc(Nc2ccc(C#N)cc2)nc1Oc1c(C)cc(C#N)cc1C | - | Y188L | MTT | 13.6
Cc1ccc(Oc2cn(C)c(=O)c(Nc3ccc(F)cc3)n2)c(C)c1 | - | RT-K103N | cytopathic effect / MTT | >7.95